Measured values from publication PMC8865542 (2021).

Biological target: HBoV1 NS[…] with Flag and His tags (human bocavirus 1 (HBoV1))
Test: BLI

Binder | koff [s⁻¹]
Ku70 domain A (α/β domain) with Strep-tag II (domain or fragment) MSGWESYYKTEGDEEAEEEQEENLEASGDYKYSGRDSLIFLVDASKAMFESQSEDELTPFDMSIQCIQSVYISKIISSDRDLLAVVFYGTEKDKNSVNFKNIYVLQELDNPGAKRILELDQFKGQQGQKRFQDMMGHGSDYSLSEVLWVCANLFSDVQFKMSHKRIMLFTNEDNPHGNDSAKASRARTKAGDLRDTGIFLDLMHLKKPGGFDISLFYRDIISIAEDEDLRVHFEESSKLEDLLRKVRAKE | 0.000548
Ku70 with Strep-tag II (natural protein) MSGWESYYKTEGDEEAEEEQEENLEASGDYKYSGRDSLIFLVDASKAMFESQSEDELTPFDMSIQCIQSVYISKIISSDRDLLAVVFYGTEKDKNSVNFKNIYVLQELDNPGAKRILELDQFKGQQGQKRFQDMMGHGSDYSLSEVLWVCANLFSDVQFKMSHKRIMLFTNEDNPHGNDSAKASRARTKAGDLRDTGIFLDLMHLKKPGGFDISLFYRDIISIAEDEDLRVHFEESSKLEDLLRKVRAKETRKRALSRLKLKLNKDIVISVGIYNLVQKALKPPPIKLYRETNEPVKTKTRTFNTSTGGLLLPSDTKRSQIYGSRQIILEKEETEELKRFDDPGLMLMGFKPLVLLKKHHYLRPSLFVYPEESLVIGSSTLFSALLIKCLEKEVAALCRYTPRRNIPPYFVALVPQEEELDDQKIQVTPPGFQLVFLPFADDKRKMPFTEKIMATPEQVGKMKAIVEKLRFTYRSDSFENPVLQQHFRNLEALALDLMEPEQAVDLTLPKVEAMNKRLGSLVDEFKELVYPPDYNPEGKVTKRKHDNEGSGSKRPKVEYSEEELKTHISKGTLGKFTVPMLKEACRAYGLKSGLKKQELLEALTKHFQD | 0.000459
